From US10632172B2, “Injectable self-assembling antibacterial peptide hydrogels” (New Jersey Institute of Technology, priority 2018, dated 2020)

Test: In vivo subcutaneous implantation of hydrogel, histology
Parameters: species or system Wistar rats
Settings: rat; for cellular infiltration of implant at 7 days: histology
Method: To test the in vivo persistence of the peptide, Wistar rats were subcutaneously injected with 200 μL CASP-K6 hydrogel (2% w/v). Because of the thixotropic nature of the hydrogel, it reconstituted post-injection in the subcutaneous pocket. At prescribed time intervals (1, 3, and 7 days), the rats were sacrificed and the dorsal skin covering the implant was removed for histological examination. Used was hematoxylin and eosin (H&E) FIGS. 15A-15B, and Masson's trichrome staining FIGS. 15C-15D) to analyze the tissue sections.
For in vivo subcutaneous implantations, NJIT-Rutgers animal care facility was used. Injected was ˜200 μL CASP-K6 hydrogels in the subcutaneous pocket (dorsal aspect) of female Wistar rats (˜250 g, Charles River) (four implants (n=4) per rat). At the specified time points (1 day, 3 day, and 7 day), the animals were sacrificed and regions around the implant were excised, fixed, and processed. Hematoxylin and eosin (H&E) and Masson's trichrome staining was used for histologic analysis.

Row | Substance | cellular infiltration of implant at 7 days | cellular infiltration of implant at day 3 (day 3, histology)
1 | Ac-KKKKKKSLSLSLSLSLSLKKKKKK-NH2 [CASP-K6] | lightly infiltrated with cells; also recorded: little cellular infiltration | cellular infiltration is observed on day 3 at the periphery of the hydrogel
2 | KKSLSLSLSLSLSLKK (CASP-K2) [cationic amphiphilic self-assembling peptide, previously reported as a multifunctional scaffold] | relatively higher degrees of infiltration | 

Entries after “also recorded” stand apart in the source; their conditions may differ.
